Test results from PubChem BioAssay AID912 (National Center for Advancing Translational Sciences (NCATS), 2007).
The entries are a selection whose mix differs from that of the whole data set. Inconclusive results are not listed. Activity calls are given as the source filed them. The call rests on the fitted dose curve.
On the % scale 0 is the no-effect control and ±100 the full control effect.

Assay: qHTS Assay for Anthrax Lethal Toxin Internalization; further: nearly all actives have a fitted effect of over 50% in size
Conditions: Cells, FRET ratio (460/530); at 40 µM (top of the series) unless noted
For `NC1CCCCC1.NP(=O)(O)N(CCCl)CCCl`, the activity change, negative = inhibition was inactive: -0.826% [at 8 µM]. In the case of `N#CC1(Nc2ccccc2)CCN(CCc2ccccc2)CC1`, the activity change, negative = inhibition is reported as inactive: -18.7%. With `ClCCOP(OCCCl)OCCCl` the activity change, negative = inhibition was inactive: -6.07%. In the case of `N/C(=N\O)c1c(N)no[n+]1[O-]`, the activity change, negative = inhibition is reported as inactive: 11.2%. In the case of `O=C(O)C1(Nc2ccccc2)CCN(Cc2ccccc2)CC1`, the activity change, negative = inhibition is reported as inactive: -5.9% [at 8 µM]. For `CCOc1ncccc1C(=O)NCC1(N2CCOCC2)CCCCC1`, the activity change, negative = inhibition was inactive: 11.5%. In the case of `Fc1ccccc1NC1CCN(Cc2ccccc2)CC1`, the activity change, negative = inhibition is reported as inactive: -18.9%.
